From US8614182B2 (Jiangsu Hansoh Pharmaceuticals Co., Ltd., priority 2009, dated 2013)

Assay: peptide synthesis
Conditions: for step yield: purification step; for final purity (method not given): whole synthesis

Substance	step yield	final purity (method not given)
H[Aib]EGTFTSDVSSYLEEEAAKEFIAWLVRGGPSSGAPPPS	22.5%	98.5%
H[dA]EGTFTSDVSSYLEEEAAKEFIAWLVRGGPSSGAPPPS	25%	98.5%
PEPTIDE1{H.A.E.G.T.F.T.S.D.V.S.S.Y.L.E.G.Q.A.A.E.F.I.V.W.L.V.K.G.R.G.K.K.G.G.P.P.P.S}|PEPTIDE2{[Pal16].K}$PEPTIDE1,PEPTIDE2,38:R2-2:R3$$$V2.0	25%	98.5%
PEPTIDE1{H.A.E.G.T.F.T.S.D.V.S.S.Y.L.E.E.Q.A.A.E.F.I.V.W.L.V.K.G.R.G.K.K.G.G.P.P.P.S}|PEPTIDE2{[Pal16].K}$PEPTIDE1,PEPTIDE2,38:R2-2:R3$$$V2.0	20.5%	98%

HELM strings list residues between dots; [ac] is acetyl, [am] amide, other brackets name non-standard units. Non-standard residues stand in square brackets, D forms with d. No end group written: not given here. Aib = CC(C)(N)C(=O)O
